# PubChem BioAssay
# Chains of the proteins cited; added tags and fusions are not shown. Lines headed by an entry give the natural chain unless they say otherwise; changes in a name come on top.
# UniProt P60615, whole entry, looked up: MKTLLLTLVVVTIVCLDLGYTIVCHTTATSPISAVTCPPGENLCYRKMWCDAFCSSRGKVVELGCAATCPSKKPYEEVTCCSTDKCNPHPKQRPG
# UniProt Q08210: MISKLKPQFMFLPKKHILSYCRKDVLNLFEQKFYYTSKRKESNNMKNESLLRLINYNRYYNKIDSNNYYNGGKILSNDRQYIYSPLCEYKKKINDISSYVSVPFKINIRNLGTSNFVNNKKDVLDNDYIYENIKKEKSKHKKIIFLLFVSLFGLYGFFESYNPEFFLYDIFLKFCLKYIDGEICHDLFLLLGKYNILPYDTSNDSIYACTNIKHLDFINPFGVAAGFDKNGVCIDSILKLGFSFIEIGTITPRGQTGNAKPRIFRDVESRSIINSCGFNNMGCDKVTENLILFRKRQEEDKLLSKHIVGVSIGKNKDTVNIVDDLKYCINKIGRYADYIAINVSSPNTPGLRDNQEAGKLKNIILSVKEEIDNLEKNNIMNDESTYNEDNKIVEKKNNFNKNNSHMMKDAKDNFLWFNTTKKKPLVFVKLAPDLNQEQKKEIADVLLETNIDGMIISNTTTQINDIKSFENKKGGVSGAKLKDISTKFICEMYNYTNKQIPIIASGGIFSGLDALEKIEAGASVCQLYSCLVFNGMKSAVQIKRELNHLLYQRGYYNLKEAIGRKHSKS
# The entries are a selection whose mix differs from that of the whole data set. The list shows a part of the results. Calls of active or inactive are those of the source.
# Columns and labels:
# [1] = E. coli growth modulation, two-sided OD650, primary screen, E. coli filamentation project, strain DRC41, 24 h (AID 1093); conditions: OD650, 24 h, higher = more signal, called active from +8 up or from −8 down;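 also: MC1000 strain lacking acrAB efflux and sulA so SOS filamentation is blocked; test concentration not given here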
# [2] = tested on: Plasmodium falciparum Sir2 (PF13_0152, Sir2A); experiment: pfSir2 binders on small-molecule microarrays, primary screen, biochemical, small-molecule microarray, 635 nm fluorescence (AID 1098); conditions: small-molecule microarray binding, fluorescence 635 nm; higher = more signal;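 also: score merges spot fluorescence intensity with its signal-to-noise ratio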
# [3] = tested on: Human papillomavirus type 1a protein E7 (residues 44-93); experiment: HPV1a E7 fragment binders on microarrays, primary screen, biochemical, small-molecule microarray, residues 44-93, 635 nm fluorescence (AID 1108); conditions: small-molecule microarray binding, fluorescence 635 nm; higher = more signal;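 also: E7 fragment applied at 1 µg/mL in TBST for 1 h at 4 C; score combines spot fluorescence with its signal to noise ratio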
# [4] = target: Alpha-bungarotoxin (Bungarus multicinctus) (UniProt P60615); experiment: alpha-bungarotoxin binders on microarray, profiling panel, artefact control for SMM control protein annotation, biochemical, small-molecule microarray, Alexa647 label, 635/667 nm fluorescence (AID 1117); conditions: alpha-BTX-A647 binding fluorescence, higher = more signal
# [5] = tested on: Human papillomavirus type 1a E7 protein (residues 1-88); experiment: HPV1a E7 small-molecule binders, primary screen, biochemical, small-molecule microarray, residues 1-88, 635 nm (AID 1129); conditions: small-molecule microarray binding, fluorescence 635 nm; higher = more signal
# [6] = E. coli DRC41 culture turbidity changes, primary screen, E. coli filamentation inducer project, strain DRC41, OD650, 48 h (AID 1152);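 also: E. coli MC1000 strain DRC41 lacking acrAB efflux pump and sulA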; conditions: E. coli DRC41 (acrAB sulA), higher = more signal, called active from +8 up or from −8 down
# [7] = target: Dihydroorotate dehydrogenase (quinone), mitochondrial (Plasmodium falciparum (isolate 3D7)) (UniProt Q08210); experiment: PfDHODH enzyme inhibitors, primary screen, biochemical, C-terminal His tag, absorbance 600 nm (AID 1175); conditions: DCIP absorbance 600 nm, higher = more signal, called active from +8 up or from −8 down;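 also: recombinant parasite enzyme with a five histidine tag at its C terminus; test concentration not given here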
# [8] = E. coli acrAB mutant growth effects, primary screen, E. coli filamentation inducers, strain DRC39, OD650, 24 h (AID 1178); conditions: higher = more signal, called active from +8 up or from −8 down;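 also: growth measured as culture turbidity by optical density at 650 nm; test concentration not given here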
# [9] = E. coli acrAB mutant growth effects, primary screen, E. coli filamentation inducers, strain DRC39, OD650, 48 h (AID 1179);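 also: screen aims at cell division blockers that make cells filament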; conditions: E. coli DRC39 delta-acrAB growth, higher = more signal, called active from +8 up or from −8 down
# [10] = Plasmodium falciparum growth inhibition, primary screen, strain 3D7, DAPI fluorescence, 100 nL (AID 1184);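 also: parasites grown inside human red blood cells in medium with human serum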; conditions: P. falciparum 3D7 growth, 3 d, higher = more signal
SMILES,z-score [1],composite z-score [2],composite z-score [3],composite z-score [4],composite z-score [5],z-score [6],composite z-score [7],z-score [8],z-score [9],z-score [10]
COP(=O)(/N=C1/CC(c2ccc(CO)cc2)=CC(C2CC2)N1C)OC (stereo not given),inactive: 1.54,1.35,0.104,0.664,0.292,inactive: 2.27,inactive: -5.92,inactive: 1.96,inactive: 1.77,-1.33
O=P(/N=C1/CC(c2ccc(CO)cc2)=CC(C2CC2)N1Cc1cc2c(cc1Br)OCO2)(Oc1ccccc1)Oc1ccccc1 (stereo not given),inactive: -0.213,1.53,1.08,1.98,1.25,inactive: -2.7,inactive: -0.712,inactive: 0.455,inactive: -0.318,-1.95
COP(=O)(/N=C1/CC(CCCO)=CC(c2ccc(CN3CCCC3)cc2)N1Cc1cc2c(cc1Br)OCO2)OC (stereo not given),inactive: 1.72,0.0185,0.268,0.65,0.224,inactive: 2.17,inactive: -6.31,inactive: 2.47,inactive: 1.76,-2.14
COP(=O)(/N=C1/CC(c2ccc(CO)cc2)=CC(C2CC2)N1Cc1cc2c(cc1Br)OCO2)OC (stereo not given),inactive: 1.31,0.414,0.711,1.12,0.544,inactive: -0.773,inactive: -4.15,inactive: 0.468,inactive: -1.13,-2.89
O=P(/N=C1/CC(c2ccc(CO)cc2)=CC(c2cccs2)N1Cc1cccc(OC(F)(F)F)c1)(Oc1ccccc1)Oc1ccccc1 (stereo not given),inactive: -1.04,1.19,1.24,1.77,1.27,inactive: -3.98,inactive: -0.341,inactive: -3.48,inactive: -3.74,-2.17
CN1/C(=N\P(=O)(Oc2ccccc2)Oc2ccccc2)CC(CCCO)=CC1C1CC1 (stereo not given),inactive: -0.283,-0.0209,0.0939,0.46,0.198,inactive: 0.593,inactive: -5.86,inactive: 0.578,inactive: 1.2,0.0918
O=P(/N=C1/CC(CCCO)=CC(C2CC2)N1Cc1cc2c(cc1Br)OCO2)(Oc1ccccc1)Oc1ccccc1 (stereo not given),inactive: -0.041,1.29,1.04,0.487,0.732,inactive: -0.318,inactive: -1.09,inactive: 0.531,inactive: 0.358,-2.21
COP(=O)(/N=C1/CC(CCCO)=CC(C2CC2)N1Cc1sc2ccccc2c1Cl)OC (stereo not given),inactive: 0.771,0.936,1.22,2.27,1.06,inactive: -0.104,inactive: -2.27,inactive: 1.84,inactive: 0.708,-2.97
COP(=O)(/N=C1/CC(c2ccc(CO)cc2)=CC(C2CC2)N1Cc1sc2ccccc2c1Cl)OC (stereo not given),active: -14.2,1.13,-0.0532,2.65,0.907,active: -10.5,inactive: -4.03,active: -21,active: -18.8,-2.89
O=P(/N=C1/CC(CCCO)=CC(C2CC2)N1Cc1sc2ccccc2c1Cl)(Oc1ccccc1)Oc1ccccc1 (stereo not given),inactive: -0.0549,0.549,1.43,1.1,1.17,inactive: -0.666,inactive: -2.31,inactive: 0.452,inactive: 0.0776,-1.93
CN1/C(=N\P(=O)(Oc2ccccc2)Oc2ccccc2)CC(CCCO)=CC1c1ccc(CN2CCCC2)cc1 (stereo not given),inactive: 0.641,0.966,1.26,0.734,1.13,inactive: -0.0485,inactive: -4.99,inactive: 0.0412,inactive: 0.0535,-0.939
O=P(/N=C1/CC(CCCO)=CC(c2ccc(CN3CCCC3)cc2)N1Cc1cc2c(cc1Br)OCO2)(Oc1ccccc1)Oc1ccccc1 (stereo not given),inactive: 0.56,1.96,0.916,-0.26,0.402,inactive: 0.435,inactive: -0.448,inactive: 0.142,inactive: 0.0621,-1.64
CC1C=C(CCCO)C/C(=N/P(=O)(Oc2ccccc2)Oc2ccccc2)N1Cc1cccc(OC(F)(F)F)c1 (stereo not given),inactive: -0.051,-0.114,1.12,0.168,1.07,inactive: -0.713,inactive: 0.292,inactive: -1.08,inactive: -0.964,-1.79
CN1/C(=N\P(=O)(Oc2ccccc2)Oc2ccccc2)CC(c2ccc(CO)cc2)=CC1C1CC1 (stereo not given),inactive: 0.0039,1.3,0.355,2.37,0.858,inactive: 2.01,inactive: -7.86,inactive: 0.744,inactive: 0.607,-0.378
COP(=O)(/N=C1/CC(CCCO)=CC(C)N1Cc1cccc(OC(F)(F)F)c1)OC (stereo not given),inactive: 1.05,0.215,-0.088,0.637,0.642,inactive: 1.38,inactive: -3.86,inactive: 2.65,inactive: 1.59,-1.35
